From paper PMC10223265 (Viruses, 2023)

Test system: HIV-1 BaL strain (subtype B, R5)
Assay type: cell-based
Conditions: for EC50: CEMx174 5.25 M7 cells, HIV-1 BaL (subtype B, R5), mean ± SD, triplicate

| Compound | fold decrease in potency relative to the parent AP3 (HIV-1 Bal, EC50 ratio) | EC50 |
| --- | --- | --- |
| CC[C@H](C)[C@H](NC(=O)[C@H](CO)NC(=O)[C@H](CCC(=O)O)NC(=O)[C@H](CCC(=O)O)NC(=O)[C@H](CCC(N)=O)NC(=O)[C@H](CCCCN)NC(=O)[C@H](CCCCN)NC(=O)[C@@H](NC(=O)[C@H](CCC(N)=O)NC(=O)[C@H](CCC(=O)O)NC(=O)[C@H](CCC(=O)O)NC(=O)[C@@H](NC(=O)[C@H](CCCCN)NC(=O)[C@H](CCCCN)NC(=O)[C@@H](NC(=O)[C@H](CC(C)C)NC(=O)[C@H](CCC(=O)O)NC(=O)[C@H](CCC(=O)O)NC(=O)[C@H](CO)NC(=O)[C@H](CCCCN)NC(=O)[C@H](CCCCN)NC(=O)[C@@H](NC(=O)[C@H](CC(C)C)NC(=O)[C@H](CCC(=O)O)NC(=O)[C@H](CCC(=O)O)NC(=O)[C@@H](NC(=O)[C@H](CCCCN)NC(=O)[C@H](CCCCN)NC(=O)[C@H](CC(=O)O)NC(=O)[C@H](Cc1c[nH]c2ccccc12)NC(=O)[C@H](CCC(=O)O)NC(=O)[C@H](CCC(=O)O)NC(=O)[C@H](Cc1c[nH]c2ccccc12)NC(=O)[C@@H](NC(=O)[C@H](CCSC)NC(C)=O)[C@@H](C)O)[C@@H](C)CC)[C@@H](C)CC)[C@@H](C)CC)[C@@H](C)CC)[C@@H](C)CC)C(=O)N[C@@H](CCCCN)C(=O)N[C@@H](CCCCN)C(=O)N[C@@H](CCCCNC(=O)COCC(=O)N1CCC(C(=O)N(CCCN2CCC(Cc3ccc(C(N)=O)cc3)CC2)c2ccc(C)c(Cl)c2)CC1)C(N)=O [AP3W] | 8.4 fold | – |
| CC[C@H](C)[C@H](NC(=O)[C@H](CO)NC(=O)[C@H](CCC(=O)O)NC(=O)[C@H](CCC(=O)O)NC(=O)[C@H](CCC(N)=O)NC(=O)[C@H](CCCCN)NC(=O)[C@H](CCCCN)NC(=O)[C@@H](NC(=O)[C@H](CCC(N)=O)NC(=O)[C@H](CCC(=O)O)NC(=O)[C@H](CCC(=O)O)NC(=O)[C@@H](NC(=O)[C@H](CCCCN)NC(=O)[C@H](CCCCN)NC(=O)[C@@H](NC(=O)[C@H](CC(C)C)NC(=O)[C@H](CCC(=O)O)NC(=O)[C@H](CCC(=O)O)NC(=O)[C@H](CO)NC(=O)[C@H](CCCCN)NC(=O)[C@H](CCCCN)NC(=O)[C@@H](NC(=O)[C@H](CC(C)C)NC(=O)[C@H](CCC(=O)O)NC(=O)[C@H](CCC(=O)O)NC(=O)[C@@H](NC(=O)[C@H](CCCCN)NC(=O)[C@H](CCCCN)NC(=O)[C@H](CC(=O)O)NC(=O)[C@H](Cc1c[nH]c2ccccc12)NC(=O)[C@H](CCC(=O)O)NC(=O)[C@H](CCC(=O)O)NC(=O)[C@H](Cc1c[nH]c2ccccc12)NC(=O)[C@@H](NC(=O)[C@H](CCSC)NC(C)=O)[C@@H](C)O)[C@@H](C)CC)[C@@H](C)CC)[C@@H](C)CC)[C@@H](C)CC)[C@@H](C)CC)C(=O)N[C@@H](CCCCN)C(=O)N[C@@H](CCCCN)C(N)=O [AP3] | – | 0.75 ± 0.22 nM |
| CC[C@H](C)[C@H](NC(=O)[C@H](CO)NC(=O)[C@H](CCC(=O)O)NC(=O)[C@H](CCC(=O)O)NC(=O)[C@H](CCC(N)=O)NC(=O)[C@H](CCCCN)NC(=O)[C@H](CCCCN)NC(=O)[C@@H](NC(=O)[C@H](CCC(N)=O)NC(=O)[C@H](CCC(=O)O)NC(=O)[C@H](CCC(=O)O)NC(=O)[C@@H](NC(=O)[C@H](CCCCN)NC(=O)[C@H](CCCCN)NC(=O)[C@@H](NC(=O)[C@H](CC(C)C)NC(=O)[C@H](CCC(=O)O)NC(=O)[C@H](CCC(=O)O)NC(=O)[C@H](CO)NC(=O)[C@H](CCCCN)NC(=O)[C@H](CCCCN)NC(=O)[C@@H](NC(=O)[C@H](CC(C)C)NC(=O)[C@H](CCC(=O)O)NC(=O)[C@H](CCC(=O)O)NC(=O)[C@@H](NC(=O)[C@H](CCCCN)NC(=O)[C@H](CCCCN)NC(=O)[C@H](CC(=O)O)NC(=O)[C@H](Cc1c[nH]c2ccccc12)NC(=O)[C@H](CCC(=O)O)NC(=O)[C@H](CCC(=O)O)NC(=O)[C@H](Cc1c[nH]c2ccccc12)NC(=O)[C@@H](NC(=O)[C@H](CCSC)NC(C)=O)[C@@H](C)O)[C@@H](C)CC)[C@@H](C)CC)[C@@H](C)CC)[C@@H](C)CC)[C@@H](C)CC)C(=O)N[C@@H](CCCCN)C(=O)N[C@@H](CCCCN)C(=O)N[C@@H](CCCCNC(=O)CCOCCOCCOCCOCCOCCOCCOCCOCCOCCOCCOCCOCCOCCOCCOCCOCCOCCOCCOCCOCCOCCOCCOCCOCCNC(=O)COCC(=O)N1CCC(C(=O)N(CCCN2CCC(Cc3ccc(C(N)=O)cc3)CC2)c2ccc(C)c(Cl)c2)CC1)C(N)=O [AP3P24W] | – | 8.98 ± 0.91 nM |
